Results of unrelated studies side by side (data: NIAID ChemDB).

Shared fields: whole-cell or culture tests; species: HIV-1; cell line: H9; measure: EC50

ECn: concentration that inhibits the pathogen or its effect by n%.

{"structure": "COc1ccc(-n2c(C)nc3c(N4CC[C@@H](NC(C)=O)C4)nc(C)nc32)cc1OC", "read by": "p24", "result": ">100 µM"}
{"structure": "CC(=O)OCc1c(C)c2ccc3c(c2oc1=O)[C@@H](OC(=O)C12CCC(C)(C(=O)O1)C2(C)C)[C@@H](OC(=O)C12CCC(C)(C(=O)O1)C2(C)C)C(C)(C)O3", "strain": "IIIB", "read by": "p24", "result": "0.028 µM"}
{"structure": "COc1ccc(-c2c(C)nc3c(N4CC[C@@H](NS(=O)(=O)c5ccc(Cl)cc5)C4)cc(C)nn23)cc1OC", "read by": "p24", "result": "0.4 µM"}
{"structure": "CCOC(=O)c1cc(C(=O)c2ccccc2)n2ccc(C(=O)N[C@H](C)c3ccccc3)cc12", "read by": "p24 / antigen", "result": "41 µM"}
{"structure": "COc1ccc(-c2c(C)nc3c(N4CCC(NC(C)=O)CC4)cc(C)nn23)cc1OC", "read by": "p24", "result": "1 µM"}
{"structure": "CCN(Cc1cccc(C)c1)c1nc2cc(C(=O)NC(C)CO)ccc2n1C1CCCCCC1", "read by": "syncytia", "conditions": "2% FBS", "result": "1.5 µM"}
{"structure": "CC(=O)N[C@@H]1CCN(c2cc(C)nn3c(-c4nccs4)c(C)nc23)C1", "read by": "p24", "result": "1 µM"}
{"structure": "Cc1c(C)c2ccc3c(c2oc1=S)[C@@H](OC(=O)C12CCC(C)(C(=O)O1)C2(C)C)[C@@H](OC(=O)C12CCC(C)(C(=O)O1)C2(C)C)C(C)(C)O3", "strain": "IIIB", "result": "0.0334 µM"}
{"structure": "CCOC(=O)c1cc(C(=O)c2ccccc2)n2ccc(C(=O)NCc3ccccn3)cc12", "read by": "p24 / antigen", "result": "47 µM"}
{"structure": "Cc1cn([C@@H]2O[C@H](CO)C[C@H]2F)c(=O)[nH]c1=O", "strain": "IIIB", "read by": "antigen", "result": ">1000 µM"}
{"structure": "Cc1c(CO)c(=O)oc2c3c(ccc12)OC(C)(C)[C@H](OC(=O)C12CCC(C)(C(=O)O1)C2(C)C)[C@@H]3OC(=O)C12CCC(C)(C(=O)O1)C2(C)C", "strain": "IIIB", "read by": "p24", "result": "0.01622 µM"}
{"structure": "CCOC(=O)c1cc(C(=O)c2ccccc2N)n2ccc(C(=O)NCc3ccccn3)cc12", "read by": "p24 / antigen", "result": "45.5 µM"}
{"structure": "Cc1cccc(CNc2nc3cc(C(=O)NC(C)(CO)CO)ccc3n2C2CCCCCC2)c1", "read by": "syncytia", "conditions": "20% FBS", "result": "0.1 µM"}
{"structure": "CC1(C)Oc2ccc3cc(CO)c(=O)oc3c2[C@@H](OC(=O)C23CCC(C)(C(=O)O2)C3(C)C)[C@H]1OC(=O)C12CCC(C)(C(=O)O1)C2(C)C", "strain": "IIIB", "read by": "p24", "result": "0.03466 µM"}
{"structure": "CC(CO)NC(=O)c1ccc2c(c1)nc(NCc1ccccc1)n2C1CCCCCC1", "read by": "syncytia", "conditions": "20% FBS", "result": "1.5 µM"}
{"structure": "COc1cc2c(c3oc(=O)c(CC#N)c(C)c13)[C@@H](OC(=O)C13CCC(C)(C(=O)O1)C3(C)C)[C@@H](OC(=O)C13CCC(C)(C(=O)O1)C3(C)C)C(C)(C)O2", "strain": "IIIB", "read by": "p24", "result": "0.11 µM"}
{"structure": "COc1cc2c(c3oc(=S)ccc13)[C@@H](OC(=O)C13CCC(C)(C(=O)O1)C3(C)C)[C@@H](OC(=O)C13CCC(C)(C(=O)O1)C3(C)C)C(C)(C)O2", "strain": "IIIB", "result": "1.28 µM"}
{"structure": "Cc1c(CC#N)c(=O)oc2c3c(ccc12)OC(C)(C)[C@H](OC(=O)C12CCC(C)(C(=O)O1)C2(C)C)[C@@H]3OC(=O)C12CCC(C)(C(=O)O1)C2(C)C", "strain": "IIIB", "read by": "p24", "result": "0.0024 µM"}
{"structure": "COc1ccc(-c2c(C)nc3c(N4CC[C@@H](NC(=O)Oc5ccccc5)C4)cc(C)nn23)cc1F", "read by": "p24", "result": "0.3 µM"}
{"structure": "Cc1cc2c(C)cc(=O)oc2c2c1OC(C)(C)[C@H](OC(=O)C13CCC(C)(C(=O)O1)C3(C)C)[C@@H]2OC(=O)C12CCC(C)(C(=O)O1)C2(C)C", "strain": "IIIB", "read by": "p24", "result": "0.058 µM"}
{"structure": "CC(C)[C@@H]1CC[C@]2(C(=O)O)CC[C@]3(C)[C@H](CC[C@@H]4[C@@]5(C)CC[C@H](OC(=O)CCCC(=O)O)C(C)(C)[C@@H]5CC[C@]43C)[C@@H]12", "strain": "IIIB", "read by": "p24 / ELISA", "result": "0.9 µM"}
{"structure": "Cc1c(-c2ccccc2)c(=S)oc2c3c(ccc12)OC(C)(C)[C@H](OC(=O)C12CCC(C)(C(=O)O1)C2(C)C)[C@@H]3OC(=O)C12CCC(C)(C(=O)O1)C2(C)C", "strain": "IIIB", "result": "4.95 µM"}
{"structure": "COc1ccc(-c2c(C)sc3c(N4CC[C@@H](NC(C)=O)C4)nc(C)nc23)cc1OC", "read by": "p24", "result": ">100 µM"}
{"structure": "CC1(C)Oc2ccc3cc(CC#N)c(=O)oc3c2[C@@H](OC(=O)C23CCC(C)(C(=O)O2)C3(C)C)[C@H]1OC(=O)C12CCC(C)(C(=O)O1)C2(C)C", "strain": "IIIB", "read by": "p24", "result": "0.0002 µM"}
{"structure": "Cc1cc2c(OCc3ccccc3)cc3c(c2oc1=O)[C@@H](OC(=O)C12CCC(C)(C(=O)O1)C2(C)C)[C@@H](OC(=O)C12CCC(C)(C(=O)O1)C2(C)C)C(C)(C)O3", "strain": "IIIB", "result": "1.54 µM"}
{"structure": "Cc1cn([C@@H]2O[C@H](COC(c3ccccc3)(c3ccccc3)c3ccccc3)C[C@H]2F)c(=O)[nH]c1=O", "strain": "IIIB", "read by": "antigen", "result": ">1000 µM"}
{"structure": "Cc1c(C[N+](=O)[O-])c(=O)oc2c3c(ccc12)OC(C)(C)[C@H](OC(=O)C12CCC(C)(C(=O)O1)C2(C)C)[C@@H]3OC(=O)C12CCC(C)(C(=O)O1)C2(C)C", "strain": "IIIB", "read by": "p24", "result": "0.023 µM"}
{"structure": "Cc1cn([C@@H]2O[C@H](COC(c3ccccc3)(c3ccccc3)c3ccccc3)C[C@@H]2O)c(=O)[nH]c1=O", "strain": "IIIB", "read by": "antigen", "result": ">1000 µM"}
{"structure": "CCOC(=O)c1cc(C(=O)c2ccc(F)cc2)n2ccc(C(=O)NCc3ccccn3)cc12", "read by": "p24 / antigen", "result": "54.4 µM"}
{"structure": "CC(CO)NC(=O)c1ccc2c(c1)nc(NCc1cccc3ccccc13)n2C1CCCCCC1", "read by": "syncytia", "conditions": "2% FBS", "result": "2 µM"}
{"structure": "Cc1cn2c(nc1=O)O[C@@H]1[C@H](F)[C@H]2O[C@@H]1COC(c1ccccc1)(c1ccccc1)c1ccccc1", "strain": "IIIB", "read by": "antigen", "result": ">1000 µM"}
{"structure": "Cc1cc(C)cc(CNc2nc3cc(C(=O)NC(C)CO)ccc3n2C2CCCCCC2)c1", "read by": "syncytia", "conditions": "2% FBS", "result": "0.6 µM"}
{"structure": "Cc1cn2c(nc1=O)OC1[C@H]2O[C@H](COC(c2ccccc2)(c2ccccc2)c2ccccc2)[C@H]1O", "strain": "IIIB", "read by": "antigen", "result": ">1000 µM"}

Repeating the final 3 entries:

structure	strain	read by	conditions	result
Cc1cn2c(nc1=O)O[C@@H]1[C@H](F)[C@H]2O[C@@H]1COC(c1ccccc1)(c1ccccc1)c1ccccc1	IIIB	antigen		>1000 µM
Cc1cc(C)cc(CNc2nc3cc(C(=O)NC(C)CO)ccc3n2C2CCCCCC2)c1		syncytia	2% FBS	0.6 µM
Cc1cn2c(nc1=O)OC1[C@H]2O[C@H](COC(c2ccccc2)(c2ccccc2)c2ccccc2)[C@H]1O	IIIB	antigen		>1000 µM

An empty or dashed field is not shown. Rows are shuffled and stem from different studies.